Target: the molecule itself
Test: SEC-MALS; WT vFLIP or mutants alone, 0.5 mg/ml, Superdex 200 10/300 GL, 25 mM Tris-HCl pH 8.5, 200 mM NaCl, 1 mM DTT

B1: R12E vFLIP mutant (domain or fragment)
chain: not shown
notes: vFLIP of KSHV with R12E; PDB […] holds the parent; source: E. coli, purified following the protocol for WT vFLIP
- stoichiometry N: 2
